We go through eight molecules from patent publication US20220356230A1 (published 2022).

In assay [1] the target is SARS-COV-2-S RBD extracellular domain expressed with a C-terminal myc-myc-hexahistidine (SARS-COV-2 RBD-MMH) (SARS-CoV-2).
Assay [2] has the same target. This is another data set of the same source.
Assay [3] deals with SARS-COV-2 RBD extracellular domain expressed with a C-terminal myc-myc-hexahistidine (SARS-COV-2 RBD-MMH) (SARS-CoV-2). The assay can be described thus: SPR Biacore, mAb captured on anti-human Fc, RBD-MMH in solution, 37 C. On the technique in general: SPR reads the build-up and loss of mass on a sensor chip optically.
Assay [4] has as its target T1, SARS-CoV-2-S RBD extracellular domain expressed with a C-terminal myc-myc-hexahistidine tag (SARS-COV-2 … (SARS-CoV-2)).
For assay [5], the target named is T1, SARS-CoV-2-S RBD extracellular domain …. The assay can be described thus: SPR Biacore T200, 37 C.
Assay [6] addresses SARS-COV-2 RBD extracellular domain expressed with a C-terminal mouse IgG2a (SARS-COV-2 RBD-mFc) (SARS-CoV-2). The assay can be described thus: SPR Biacore, mAb captured on anti-human Fc, RBD-mFc in solution, 37 C.
Assay [7] has as its target T2, SARS-COV-2-S RBD extracellular domain expressed with a C-terminal myc-myc-hexahistidine (SARS-COV-2 RBD-MMH) (SARS-CoV-2). The assay can be described thus: SPR Biacore T200, 37 C, ratio of dissociative half-lives at pH 7.4 and pH 5.0.
The target in assay [8] is T2, SARS-COV-2-S RBD extracellular domain …. This is another data set of the same source.

Where “and” joins values, the source holds several entries; their conditions need not be identical. Identical values can stand only once. Like-named read-outs stand apart in the source and are kept apart here.

B1: mAb10985 (antibody, V domains shown)
VH: EVQLVESGGGLVQPGRSLRLSCAASGFTFDDYAMHWVRQAPGKGLEWVSGISWNRGSIGYADSVKGRFTISRDNAKNSLYLQMSSLRAEDTALYYCAKDGERWDSVVVPSARNGMDVWGQGTTVTVSS
VL: QSVLTQPPSVSGAPGQRVTISCTGSSSNIGAGYDVHWYQQLPGTAPKLLIYGNSNRPSGVPDRFSGSKSGTSASLAITGLQAEDEADYYCQSYDSSLSGSYVFGTGTKVTVLG
In general, t½ refers to the time in which the quantity being followed falls by half. A low value points to rapid decline. Turning to B1, the “t½” value in assay [1] is 3.2 min and 3.6 min.

B2: mAb10985 (antibody, V domains shown)
VH: EVQLVESGGGLVQPGRSLRLSCAASGFTFDDYAMHWVRQAPGKGLEWVSGISWNRGSIGYADSVKGRFTISRDNAKNSLYLQMSSLRAEDTALYYCAKDGERWDSVVVPSARNGMDVWGQGTTVTVSS
VL: QSVLTQPPSVSGAPGQRVTISCTGSSSNIGAGYDVHWYQQLPGTAPKLLIYGNSNRPSGVPDRFSGSKSGTSASLAITGLQAEDEADYYCQSYDSSLSGSYVFGTGTKVTVLG
Take B2: in assay [2], the t½ is 3.2 min and 3.4 min.

B3: mAb10922 (antibody, V domains shown)
VH: EVQLVESGGGLVQPGGSLRLSCAASGFTFSIYEMNWVRQAPGKGLEWVSYITSSGTTIYYADSVKGRFTISRDNAKNSLYLQMNSLRAEDTAVYYCASSSSSGYYFDYWGQGTLVTVSS
VL: not shown
Broadly, the koff is a measure of how fast the partners let go of each other. A high value points to fast dissociation. The term kon denotes the second-order rate constant of association. A low value points to slower complex formation. As for B3, in assay [3], the koff is 0.00927 s⁻¹ and the on-rate (kon) is 1.04e+06 M⁻¹ s⁻¹.

B4: mAb10922 (antibody, V domains shown)
VH: EVQLVESGGGLVQPGGSLRLSCAASGFTFSIYEMNWVRQAPGKGLEWVSYITSSGTTIYYADSVKGRFTISRDNAKNSLYLQMNSLRAEDTAVYYCASSSSSGYYFDYWGQGTLVTVSS
VL: not shown
Regarding B4, in assay [4], the off-rate (koff) is 0.00907 s⁻¹ and 0.00961 s⁻¹; the “t½” value turned out to be 1.3 min. Also, the “t½ Ratio pH 7.4/pH 6.0” value in assay [5] is 1.1.

B5: mAb10922 (antibody, V domains shown)
VH: EVQLVESGGGLVQPGGSLRLSCAASGFTFSIYEMNWVRQAPGKGLEWVSYITSSGTTIYYADSVKGRFTISRDNAKNSLYLQMNSLRAEDTAVYYCASSSSSGYYFDYWGQGTLVTVSS
VL: not shown
Take B5: in assay [6], the koff stood at 0.00016 s⁻¹ and the on-rate constant (kon) was determined as 4.6e+06 M⁻¹ s⁻¹.

B6: mAb10922 (antibody, V domains shown)
VH: EVQLVESGGGLVQPGGSLRLSCAASGFTFSIYEMNWVRQAPGKGLEWVSYITSSGTTIYYADSVKGRFTISRDNAKNSLYLQMNSLRAEDTAVYYCASSSSSGYYFDYWGQGTLVTVSS
VL: not shown
Take B6: the “t½ Ratio pH 7.4/pH 5.0” value in assay [7] stood at 0.9. Moreover, in assay [8], the off-rate constant (koff) was 0.00907 s⁻¹ and 0.00808 s⁻¹; the t½ is 1.3 min and 1.4 min.

B7: mAb10966 (antibody, V domains shown)
VH: EVQLVESGGGLVQPGGSLRLSCAASGLTVSSNYMSWVRQAPGKGLEWVSVIYSGGSTFYADSVKGRFTISRDNSKNTLYLQMNSLRPEDTAVYYCAREGRIAATGYGMDVWGQGTTVTVSS
VL: DIQMTQSPSSLSASVGDRVTITCQASQDISNYLNWYQQKPGKAPKLLIYDASNLGTGVPSRFSGSRSGTDFTFTISSLQPEDIATYYCHQYDNLPQTFGPGTKVDIKR
Take B7: in assay [1], the “t½” value was 7.2 min and 8.2 min.

B8: mAb10966 (antibody, V domains shown)
VH: EVQLVESGGGLVQPGGSLRLSCAASGLTVSSNYMSWVRQAPGKGLEWVSVIYSGGSTFYADSVKGRFTISRDNSKNTLYLQMNSLRPEDTAVYYCAREGRIAATGYGMDVWGQGTTVTVSS
VL: DIQMTQSPSSLSASVGDRVTITCQASQDISNYLNWYQQKPGKAPKLLIYDASNLGTGVPSRFSGSRSGTDFTFTISSLQPEDIATYYCHQYDNLPQTFGPGTKVDIKR
Consider B8, for which the t½ in assay [2] was 7.2 min and 9.2 min.
